Anti-infective test results gathered from many reports (values: NIAID ChemDB through PubChem).

Common to all: target-level tests; species: Pneumocystis carinii

Two numbers with a dash give a range or band.

SMILES,method,dose,target,read-out,value
COc1cc(Cc2cnc(N)nc2N)c2c(c1Br)OC=CC2,-,-,DHFR,IC50,5.9 µM
CN1CCN(c2ccc3nc(-c4ccc5nc(-c6ccc(O)cc6)[nH]c5c4)[nH]c3c2)CC1,-,-,Topoisomerase I,IC50,12.5 µM
Nc1ccc(S(=O)(=O)Nc2ccccc2O)cc1,-,-,DHPS,IC50,0.23 µM
Nc1ccc(S(=O)(=O)Nc2cnc3ccccc3n2)cc1,HPLC,-,Oxidosqualene cyclase,IC50,425 µM
CC1(C)N=C(N)N=C(N)N1c1cccc(CC(=O)Nc2ccccc2)c1,-,-,DHFR,IC50,0.44 µM
Nc1ccc(S(=O)(=O)Nc2nccs2)cc1,-,0.05 µM,DHPS,inhibition,60.9%
O=C1C(=O)c2ccccc2C(O)=C1C1CCC(c2ccc(Cl)cc2)CC1,-,100 µM,Dihydroorotate dehydrogenase,inhibition,76.3%
CC(C)N=C(N)c1ccc2nc(/C=C\c3nc4ccc(C(N)=NC(C)C)cc4[nH]3)[nH]c2c1,-,-,Topoisomerase II,IC50,0.312 µM
C=C(C)c1c(OC)cc(Cc2cnc(N)nc2N)cc1OC,-,-,DHFR,IC50,24 µM
Nc1nc(N)c2c(n1)CCc1c(Cl)cc(Cl)cc1-2,-,-,DHFR,IC50,1.07 µM
Cc1c(N)cc(Cc2cnc(N)nc2N)cc1-n1cccc1,-,-,DHFR,IC50,33.5 µM
COc1cc(N2C(N)=NC(N)=NC2(C)C)cc(OC)c1OC,-,-,DHFR,IC50,>26 µM
Nc1ccc(S(=O)(=O)Nc2ccc(Cl)nn2)cc1,-,-,DHPS,IC50,>0.05 µM
COc1ccc(Cc2cnc(N)nc2N)cc1OCCC(=O)NCC(=O)O,-,-,DHFR,IC50,9.3 µM
COc1ncnc(NS(=O)(=O)c2ccc(N)cc2)c1OC,HPLC,500 µM,Oxidosqualene cyclase,inhibition,42%
CCc1nc(N)nc(N)c1-c1ccc(Cc2ccccc2)c([N+](=O)[O-])c1,-,-,DHFR,IC50,1.03 µM
N=C(N)c1ccc2nc(CCCCc3nc4ccc(C(=N)N)cc4[nH]3)[nH]c2c1,-,-,Topoisomerase I,IC50,10–12 µM
CC1(C)N=C(N)N=C(N)N1c1ccc(CCC(=O)Nc2ccc(S(=O)(=O)F)cc2)cc1,-,-,DHFR,IC50,0.59 µM
COc1cc(Cc2cnc(N)nc2N)cc(OCc2ccccc2)c1OCc1ccccc1,-,-,DHFR,IC50,8.3 µM
CC(=O)NS(=O)(=O)c1ccc(N=Nc2c(O)n(-c3ccccc3)n(-c3ccccc3)c2=O)cc1,-,-,DHPS,IC50,>10 µM
CN(Cc1cnc2nc(N)nc(N)c2n1)c1c(Cl)cc(C(=O)N[C@@H](CCC(=O)O)C(=O)O)cc1Br,-,-,DHFR,IC50,0.00021 µM
CC(=O)NS(=O)(=O)c1ccc(N=NC2C(=O)N(C(=O)c3ccncc3)N=C2C)cc1,-,-,DHPS,IC50,>10 µM
Cc1c(CNc2ccc(C(=O)NC(CC(=O)O)C(=O)O)cc2)ccc2nc(N)nc(N)c12,-,-,DHFR,IC50,0.00042 µM
Cc1ncncc1NS(=O)(=O)c1ccc(N)cc1,-,-,DHPS,IC50,2.7 µM
CCc1nc(N)nc(N)c1-c1ccc(N2CCCCC2)c([N+](=O)[O-])c1,-,-,DHFR,IC50,5.05 µM
Cc1noc(NS(=O)(=O)c2ccc(N)cc2)c1C,-,-,DHPS,IC50,>0.05 µM
COc1cc(C(=O)N[C@@H](CCC(=O)O)C(=O)O)ccc1N(C)Cc1cnc2nc(N)nc(N)c2n1,-,-,DHFR,IC50,0.00049 µM

A second listing of 3 rows from above:

{"SMILES": "CCc1nc(N)nc(N)c1-c1ccc(Cc2ccccc2)c([N+](=O)[O-])c1", "target": "DHFR", "read-out": "IC50", "value": "1.03 µM"}
{"SMILES": "CC1(C)N=C(N)N=C(N)N1c1cccc(CC(=O)Nc2ccccc2)c1", "target": "DHFR", "read-out": "IC50", "value": "0.44 µM"}
{"SMILES": "Nc1ccc(S(=O)(=O)Nc2cnc3ccccc3n2)cc1", "method": "HPLC", "target": "Oxidosqualene cyclase", "read-out": "IC50", "value": "425 µM"}

Lines come from different laboratories, so protocols vary. An empty or dashed field is not shown. ICn: concentration for n% inhibition. Percent inhibition refers to the dose given; in toxicity tests it is the harm to the cells.